A mixed list of measured activities; the numbers were collected in NIAID ChemDB.

Shared fields: tests on isolated targets; organism: HIV-1; protein: Reverse transcriptase; endpoint: IC50

ICn: concentration for n% inhibition.

structure	strain or isolate	changes	method	value
CC(C)[C@@H](C)/C=C/[C@@H](C)[C@H]1CC[C@H]2C3=CC=C4C[C@@H](O)CC[C@]4(C)[C@H]3CC[C@]12C			RT activity	>250 µM
C[C@@H](NC(=S)Nc1ccc(Cl)cn1)c1cccc2ccccc12			nucleotide incorporation	0.58 µM
CC[C@H]1CN2CCc3cc(OC)c(OC)cc3[C@@H]2C[C@@H]1CC1=NCCc2cc(OC)c(OC)cc21				348 µM
CC[C@@H](C(=O)[C@@H](C)[C@@H](O)[C@H](C)CCc1ccc(C)c(O)c1C(=O)O)[C@H]1O[C@](CC)([C@H]2CC[C@](O)(CC)[C@H](C)O2)C[C@@H]1C			RT activity	>100 µg/mL
Cc1cc(C)c(S(=O)(=O)N2CCN(C(=O)c3cc(O)c(O)c(O)c3)CC2)c(C)c1	BH10		ELISA / nucleotide incorporation	>50 µM
Cc1cc(C)nc(NC(=S)N[C@@H](C)c2cccc3ccccc23)c1			nucleotide incorporation	>100 µM
Nc1nc2c(ncn2[C@@H]2C=C[C@H](OCP(=O)(O)OP(=O)(O)OP(=O)(O)O)C2)c(=O)[nH]1				1.5 µM
O=C(c1ccccc1)N1CCN(C(=O)c2cc(O)c(O)c(O)c2)CC1	BH10		ELISA / nucleotide incorporation	>50 µM
Cc1c(-c2c(C)c(=O)c3c(C(C)C)c(=O)c(=O)c(C=O)c-3c2=O)c(O)c2c(C=O)c(O)c(O)c(C(C)C)c2c1O	LAV		HPLC	1.7 µM
C/C=C/CSc1cc(NC(=S)c2ccsc2C)ccc1Cl		RT-V106A		10.1 µM
Cc1cc2c(C(C)C)c(O)c(O)c(C=O)c2c(O)c1-c1c(C)cc2c(C(C)C)c(O)c(O)c(C=O)c2c1O	LAV		HPLC	4.6 µM
C[C@H](CC[C@H](O)C(C)(O)CO)[C@H]1CC[C@@]2(C)C3=CCC4C(C)(C)[C@@H](O)CC[C@]4(C)C3=CC[C@]12C			RT activity	>250 µM
Cc1cc2c(C(C)C)c(O)c(O)c(C=NCCO)c2c(O)c1-c1c(C)cc2c(C(C)C)c(O)c(O)c(C=NCCO)c2c1O	LAV		HPLC	1.2 µM
CC(C)(C)OC(=O)N1CCN(C(=O)c2cc(O)c(O)c(O)c2)CC1	BH10		ELISA / nucleotide incorporation	>50 µM
CCCN(C)c1nc([C@@H](C)c2c(F)cccc2F)c(C)c(=O)[nH]1		K103N	RT activity	>20 µM
CCC1(c2ccc(CNc3ccccc3)cc2)Oc2ccccc2-n2cccc2C1=O		RT-V106A	nucleotide incorporation / radiometric	1.2 µM
C[C@H](CCC=C(CO)CO)[C@H]1C[C@H](O)[C@@]2(C)C3=CC[C@H]4C(C)(C)C(=O)CC[C@]4(C)C3=CC[C@]12C			RT activity	>250 µM
CCC1(c2ccc(Cn3ccsc3=N)cc2)Oc2ccccc2-n2cccc2C1=O	WT		nucleotide incorporation / radiometric	1.6 µM
Cc1occc1C(=S)Nc1ccc(Cl)c(/C=N/OC(C)(C)C)c1		RT-V106A		12.7 µM
COC(=O)c1ccc(C(=O)N2CCC(NC(=O)c3cc(O)c(O)c(O)c3)CC2)cc1	BH10		ELISA / nucleotide incorporation	>289.6 µM
CCC1(c2ccc(/C=C/c3ccccc3)cc2)Oc2ccccc2-n2cccc2C1=O	WT		nucleotide incorporation / radiometric	>100 µM
CC(=O)O[C@@H]1C(=O)C2=C(C(=O)C[C@H]3C(C)(C)[C@@H](O)CC[C@]23C)[C@]2(C)C(=O)C[C@H]([C@@H](C)CC(=O)C[C@@H](C)C(=O)O)[C@@]12C			RT activity	>250 µM
CC(=O)Oc1ccc(OC(C)=O)c(C[C@@]2(C)C3CCC[C@@](C)(CC[C@@]4(C)C5=CCCC(C)(C)[C@H]5CC[C@@H]4C)C3=CC[C@H]2C)c1			nucleotide incorporation / radiometric	41 µM
Cc1cc(C)cc(S(=O)(=O)N2CCC(NC(=O)c3cc(O)c(O)c(O)c3)CC2)c1	BH10		ELISA / nucleotide incorporation	>158.6 µM
Cc1cc(C)cc(Sc2c(C(C)C)c(=O)[nH]c(=S)n2COCCO)c1	IIIB		nucleotide incorporation	16.8 µM
COC1CCC(OC2CC(C3(C)CCC4(CC(O)C(C)C(C(C)/C=C(\C)C(=O)C(C)CC(C)C(=O)O)O4)O3)OC3(OC(C4OC(O)(CO)C(C)CC4C)CC3C)C2C)OC1C			RT activity	>100 µg/mL
CC(=O)Oc1c(OC(C)=O)c(C#N)c2c(OC(C)=O)c(-c3c(C)cc4c(C(C)C)c(OC(C)=O)c(OC(C)=O)c(C#N)c4c3OC(C)=O)c(C)cc2c1C(C)C	LAV		HPLC	2.7 µM
CO[C@@H]1C[C@@H](C[C@H]2CC[C@H](C)[C@H]([C@@H](C)C(=O)O)O2)O[C@]2(O[C@](C)([C@H]3CC[C@@](C)([C@@H]4O[C@@H]([C@H]5O[C@@](O)(CO)[C@H](C)C[C@@H]5C)C[C@@H]4C)O3)C[C@H]2C)[C@@H]1C			RT activity	>100 µg/mL
CC1(C)C2=CC(=O)C(O)(c3ccccc3)C(=O)N2c2ccc(Cl)cc21	RF		nucleotide incorporation / radiometric	4 µM
C[C@H](NC(=S)Nc1ccc(Br)cn1)c1cccc2ccccc12			nucleotide incorporation	>100 µM
Cc1cc2c(C(C)C)c(O)c(O)c3c(N)oc(/c1=c1/c(C)cc4c(C(C)C)c(=O)c(=O)c5c(N)oc1c45)c23			nucleotide incorporation / radiometric	>10 µM
CC(=O)Oc1c(OC(C)=O)c2c3c(c(-c4c(C)cc5c(C(C)C)c(OC(C)=O)c(OC(C)=O)c6c5c4OC6OC(C)=O)c(C)cc3c1C(C)C)OC2OC(C)=O	LAV		HPLC	2.3 µM
Cc1cc(C)nc(NC(=S)N[C@H](C)c2cccc3ccccc23)c1			nucleotide incorporation	40 µM
CC1(C)C2=CC(=O)C(c3ccccc3)([N+](=O)[O-])C(=O)N2c2ccc(Cl)cc21	RF		nucleotide incorporation / radiometric	6 µM
COc1cc(C/C=C/c2cc(O)c(O)c(O)c2)cc(OC)c1				>100 µM
Cc1cc2c(C(C)C)c(O)c(O)cc2c(O)c1-c1c(C)cc2c(C(C)C)c(O)c(O)cc2c1O	LAV		HPLC	4.4 µM
Cc1cn([C@@H]2O[C@H](CO[Si](C)(C)C(C)(C)C)[C@@]3(OS(=O)(=O)C=C3N)[C@H]2O[Si](C)(C)C(C)(C)C)c(=O)[nH]c1=O	IIIB	Purified RT	nucleotide incorporation	0.62 µM
O=C(OCC1OC(OCCc2ccccc2)C(O)C(O)C1O)c1cc(O)c(O)c(O)c1			RT activity	50 µg/mL
Cc1cc2c(C(C)C)c(O)c(O)c(C=N)c2c(O)c1-c1c(C)cc2c(C(C)C)c(O)c(O)c(C=N)c2c1O	LAV		HPLC	2.1 µM
Cc1cn([C@@H]2O[C@H](CO[Si](C)(C)C(C)(C)C)C3(OS(=O)(=O)C=C3N)[C@H]2O[Si](C)(C)C(C)(C)C)c(=O)n(C)c1=O	IIIB		nucleotide incorporation	1.52 µM
Nc1ncnc2c1ccn2[C@H]1CC[C@@H](COP(=O)(O)OP(=O)(O)OP(=O)(O)O)O1			RT activity	0.39 µM
O=c1c(O)c(-c2ccc(O)cc2)oc2cc(O)cc(O)c12			RT activity	>100 µg/mL
CCOC(=O)Cc1csc(NC(=S)N[C@H](C)c2cccc3ccccc23)n1			nucleotide incorporation	0.89 µM
CCCCC1(O)C(=O)C=C2N(C1=O)c1ccccc1C2(C)C	RF		nucleotide incorporation / radiometric	>100 µM
CCS(=O)(=O)N1CCC(NC(=O)c2cc(O)c(O)c(O)c2)CC1	BH10		ELISA / nucleotide incorporation	>293.3 µM

Repeating the first 5 entries:

structure,strain or isolate,changes,method,value
CC(C)[C@@H](C)/C=C/[C@@H](C)[C@H]1CC[C@H]2C3=CC=C4C[C@@H](O)CC[C@]4(C)[C@H]3CC[C@]12C,,,RT activity,>250 µM
C[C@@H](NC(=S)Nc1ccc(Cl)cn1)c1cccc2ccccc12,,,nucleotide incorporation,0.58 µM
CC[C@H]1CN2CCc3cc(OC)c(OC)cc3[C@@H]2C[C@@H]1CC1=NCCc2cc(OC)c(OC)cc21,,,,348 µM
CC[C@@H](C(=O)[C@@H](C)[C@@H](O)[C@H](C)CCc1ccc(C)c(O)c1C(=O)O)[C@H]1O[C@](CC)([C@H]2CC[C@](O)(CC)[C@H](C)O2)C[C@@H]1C,,,RT activity,>100 µg/mL
Cc1cc(C)c(S(=O)(=O)N2CCN(C(=O)c3cc(O)c(O)c(O)c3)CC2)c(C)c1,BH10,,ELISA / nucleotide incorporation,>50 µM

Blank or dashed fields: not listed here. Conditions beyond the fields shown may differ between rows.